Data published in article PMC4177073.

Biological target: WT-NP-FLAG (influenza nucleoprotein) (Influenza A virus (Udorn)) (UniProt P06827)
Test: EMSA
Settings: Binding buffer, pH and temperature not stated, protein in a lysate after overexpression, residues 1-498, protein details: C-terminal short glycine linker + FLAG (DYKDDDDK), label: 5' biotin, single-stranded DNA

“AGCAAAAGCAGGGTGACAAAGACATGATAAAAAACACCCTTGTTTCTACT [biotin-ssDNA of 5' and 3' vRNA ends]”: binds.

Construct, isoform or probe ends are uncertain for at least one entry. Where cells or extracts were used, other partners may take part.
